Assay results as given in ChEMBL document CHEMBL1671672, “Human immunodeficiency virus type 1 recombinant reverse transcriptase enzymes containing the G190A and Y181C resistance mutations remain sensitive to etravirine” (Antimicrob Agents Chemother, 2009).

Columns and labels:
Parameters in all cases: species or system SubtypeB
[1] = molecular target: T1, Human immunodeficiency virus type 1 reverse transcriptase (Human immunodeficiency virus 1, UniProt Q72547, Y181C); experiment: Inhibition of DNA-dependent DNA polymerase activity of wild-type Human immunodeficiency virus 1 subtype B reverse transcriptase Y181C mutant by filter-based filtration assay
[2] = molecular target: T2, Human immunodeficiency virus type 1 reverse transcriptase (Human immunodeficiency virus 1, UniProt Q72547, G190A); experiment: Inhibition of DNA-dependent DNA polymerase activity of wild-type Human immunodeficiency virus 1 subtype B reverse transcriptase G190A mutant by filter-based filtration assay
[3] = molecular target: T3, Human immunodeficiency virus type 1 reverse transcriptase (Human immunodeficiency virus 1, UniProt Q72547); experiment: Inhibition of Human immunodeficiency virus 1 subtype B reverse transcriptase DNA-dependent DNA polymerase activity by gel-based primer extension assay
[4] = molecular target: T3, Human immunodeficiency virus type 1 reverse transcriptase; experiment: Inhibition of RNA-dependent DNA polymerase activity of wild-type Human immunodeficiency virus 1 subtype B reverse transcriptase by filter-based filtration assay
[5] = molecular target: T1, Human immunodeficiency virus type 1 reverse transcriptase; experiment: Inhibition of Human immunodeficiency virus 1 subtype B reverse transcriptase Y181C mutant by filter-based filtration assay
[6] = molecular target: T2, Human immunodeficiency virus type 1 reverse transcriptase; experiment: Inhibition of Human immunodeficiency virus 1 subtype B reverse transcriptase G190A mutant by filter-based filtration assay

## Cc1cc(C#N)cc(C)c1Oc1nc(Nc2ccc(C#N)cc2)nc(N)c1Br [ETRAVIRINE]
[1]
  IC50: 107 nM
[2]
  IC50: 129 nM
[3]
  IC50: 97 nM
[4]
  IC50: 175 nM
[5]
  IC50: 257 nM
[6]
  IC50: 191 nM
